A mixed list of measured activities; the numbers were collected in NIAID ChemDB.

Shared fields: whole-cell or culture tests; species: Candida albicans; endpoint: MIC

Neighbouring rows are from separate reports. Blank or dashed fields: not listed here.

{"smiles": "O=C(N/N=C/c1ccc(C(F)(F)F)cc1)c1ccc(CNc2nc3ccccc3[nH]2)cc1", "read by": "broth dilution", "value": "25 µg/mL"}
{"smiles": "Cc1c(S(=O)(=O)c2ccccc2)[n+](=O)c2cc(Cl)ccc2n1[O-]", "strain": "Clinical isolate 17", "value": "31.25 µg/mL"}
{"smiles": "O=C(/C=C1\\Sc2ccccc2N1C1CCCCCC1)c1ccccc1", "strain": "ATCC 10231", "value": "50 µg/mL"}
{"smiles": "CC1CCCC[C@H]2C(=O)C=C[C@H]3OC(/C=C/C=C/C=C/C(=O)O)=C(C(=O)O1)[C@@H]32", "value": ">32 µg/mL"}
{"smiles": "CC[N+]([O-])(CC)CCCC(C)CCCC(C)CCCCC(C)CCCC(C)CCC[N+]([O-])(CC)CC", "strain": "S124", "value": ">200 µg/mL"}
{"smiles": "CC1C=C(c2ccc(C(F)(F)F)cc2)C(=O)O1", "strain": "ATCC 44859", "value": ">125 µM"}
{"smiles": "Nc1nc(=O)n([C@H]2O[C@@H](CO)[C@H](O)[C@@H]2O)cc1F", "strain": "ATCC 90028", "read by": "broth dilution", "value": "0.75 µg/mL"}
{"smiles": "Cc1ccc(-c2nnc(SCC(O)(Cn3cncn3)c3ccc(Cl)cc3Cl)n2N)cc1", "strain": "IRFC 36", "read by": "broth dilution", "value": ">64 µg/mL"}
{"smiles": "CCCCCCCCCCCC[n+]1cc[nH]c1C(C)O", "value": "8 µg/mL"}
{"smiles": "CC(C)[C@]1(C)CC[C@]2(C)C=CC(C)(C)C[C@H](OC(=O)c3ccc(O)cc3)C12", "strain": "SC5314", "value": ">50 µg/mL"}
{"smiles": "COC1=CC(=O)[C@H](O)[C@@](C)(O)[C@H]1O", "value": ">400 µg/mL"}
{"smiles": "CC[N+]([O-])(CC)CCCC(C)=CCC/C(C)=C/CCC=C(C)CC/C=C(\\C)CCC=C(C)C", "strain": "S124", "value": "200 µg/mL"}
{"smiles": "C[C@@H]1CC[C@@H](O)[C@@](C)(O)[C@@]1(C)CCc1ccc2c(c1)C(=O)C=CC2=O", "value": "6 µg/mL"}
{"smiles": "CCCCCCCCCCn1cc[n+](C)c1", "value": "250 µg/mL"}
{"smiles": "Cc1c(Sc2ccccc2)[n+](=O)c2cc(C(F)(F)F)ccc2n1[O-]", "strain": "Clinical isolate 24", "value": "15.6 µg/mL"}
{"smiles": "COc1ccc(/C=N/NC(=O)c2ccc(CNc3nc4ccccc4[nH]3)cc2)cc1", "read by": "broth dilution", "value": "50 µg/mL"}
{"smiles": "CCCCCCCCCCCCCCCC[n+]1c(C(C)O)c[nH]c1C", "value": "32 µg/mL"}
{"smiles": "COc1ccc(-c2nnc(SCC(O)(Cn3cncn3)c3ccc(Cl)cc3Cl)n2N)cc1", "strain": "ATCC 18804", "read by": "broth dilution", "value": ">64 µg/mL"}
{"smiles": "CCOC(=O)Cc1csc(NC(=O)CSc2nnc(C(C)Oc3ccccc3)n2-c2ccccc2)n1", "strain": "Clinical isolates", "value": ">16 µg/mL"}
{"smiles": "CC1C=C(c2cccc3ccccc23)C(=O)O1", "strain": "ATCC 44859", "value": "31.25 µM"}
{"smiles": "Cc1cc2c(O[C@H]3O[C@H](CO)[C@@H](O)[C@H]3O)ccc(O)c2c(=O)o1", "strain": "ATCC 32354", "read by": "turbidity", "value": ">128 µg/mL"}
{"smiles": "CCCCCCCCOc1ccc(-c2ccc(C(=O)NC3CC(NCCN)CNC(=O)[C@@H]4[C@@H](O)[C@@H](C)CN4C(=O)[C@@H](CO)NC(=O)[C@H]([C@H](O)Cc4ccccc4)NC(=O)[C@@H]4C[C@@H](O)CN4C(=O)[C@H]([C@@H](C)O)NC3=O)cc2)cc1", "strain": "2438", "value": "0.5 µg/mL"}
{"smiles": "C[C@@H](c1ncncc1F)[C@](O)(Cn1cncn1)c1ccc(F)cc1F", "strain": "8647", "read by": "broth dilution", "value": "0.015 µg/mL"}
{"smiles": "O=C(N/N=C/c1ccc(Br)cc1)c1ccc(CNc2nc3ccccc3[nH]2)cc1", "read by": "broth dilution", "value": "100 µg/mL"}
{"smiles": "CCOC(=O)c1csc(NC(=O)CSc2nnc(C(C)Oc3ccc(C)cc3)n2-c2ccccc2)n1", "strain": "NRRL Y-27077", "value": "8 µg/mL"}
{"smiles": "COc1ccc(-c2nnc(SCC(O)(Cn3cncn3)c3ccc(F)cc3F)n2N)cc1", "strain": "ATCC 18804", "read by": "broth dilution", "value": ">64 µg/mL"}
{"smiles": "O=C(N/N=C/c1ccc(Cl)cc1)c1ccc(CNc2nc3ccccc3[nH]2)cc1", "read by": "broth dilution", "value": "100 µg/mL"}
{"smiles": "CC(C)=CCC/C(C)=C/CCC(C)=CCC/C=C(\\C)CCC=C(C)CCC[N+](C)(C)C", "strain": "S124", "value": "6.25 µg/mL"}
{"smiles": "CC[C@@H]([C@H](C)O)n1ncn(-c2ccc(N3CCN(c4ccc(OC[C@@H]5CO[C@@](Cn6cncn6)(c6ccc(F)cc6F)C5)cc4)CC3)cc2)c1=O", "strain": "8647", "read by": "broth dilution", "value": "0.03 µg/mL"}
{"smiles": "CC(C)=CCC/C(C)=C/CCC(C)=CCC/C=C(\\C)CCC=C(C)CCCN(C)C", "strain": "S124", "value": "50 µg/mL"}
{"smiles": "CCC(O)/C=C/C=C/C=C/C(=O)OC[C@H]1O[C@@H](O[C@H]2[C@H](OC(=O)/C=C/C=C/CC(O)/C(C)=C/C=C/CCC(C)CC)[C@@H](O)[C@@]3(OCc4cc(O)cc(O)c43)O[C@@H]2CO)[C@H](O)[C@@H](O)[C@H]1O", "strain": "A9540", "value": "1.6 µg/mL"}
{"smiles": "CCN(CC)CCCC(C)=CCC/C(C)=C/CCC=C(C)CC/C=C(\\C)CCCN(CC)CC", "strain": "S9", "value": "50 µg/mL"}
{"smiles": "CC1C=C(c2ccc(Br)cc2)C(=O)O1", "strain": "ATCC 44859", "value": "31.25 µM"}
{"smiles": "C[C@H](O)Cc1cc2c(O[C@H]3O[C@H](CO)[C@@H](O)[C@H]3O)ccc(O)c2c(=O)o1", "strain": "ATCC 10231", "read by": "turbidity", "value": ">128 µg/mL"}
{"smiles": "Nn1c(SCC(O)(Cn2cncn2)c2ccc(F)cc2F)nnc1-c1ccncc1", "strain": "IRFC 36", "read by": "broth dilution", "value": ">64 µg/mL"}
{"smiles": "Fc1ccc(CCCCn2c3c(c4cc(F)ccc42)CNCC3)cc1", "strain": "OY2-76", "value": "1 µg/mL"}
{"smiles": "Nn1c(SCC(O)(Cn2cncn2)c2ccc(Cl)cc2Cl)nnc1-c1ccccc1", "strain": "IRFC 37", "read by": "broth dilution", "value": "8 µg/mL"}
{"smiles": "C[C@@H]1CC(=O)[C@H](C)[C@H](C)C1CCc1ccc2c(c1)C(=O)C=CC2=O", "value": "3 µg/mL"}
{"smiles": "CCOc1ccc(/C=N/NC(=O)c2ccc(CNc3nc4ccccc4[nH]3)cc2)cc1", "read by": "broth dilution", "value": "50 µg/mL"}
{"smiles": "Nn1c(SCC(O)(Cn2cncn2)c2ccc(Cl)cc2Cl)nnc1-c1ccc(Cl)cc1Cl", "strain": "IRFC 37", "read by": "broth dilution", "value": "2 µg/mL"}
{"smiles": "CC(C)[C@@H](C)[C@H](O)[C@@H]1CC23CC(=O)[C@]4(O)C(=C2CC[C@@H]3[C@@H]1C)C=CC1CC(=O)CC[C@@]14C", "strain": "IFM 40009", "value": ">80 µg/mL"}
{"smiles": "CC(C)C(=O)/C=C1/Sc2ccccc2N1Cc1ccccc1", "strain": "ATCC 14053", "value": "≥100 µg/mL"}
{"smiles": "COc1cc(C(=O)O[C@H]2CC(C)(C)C=C[C@@]3(C)CC[C@@](C)(C(C)C)C23)ccc1O", "strain": "SC5314", "value": ">50 µg/mL"}
{"smiles": "CC(=O)/C=C1\\Sc2ccccc2N1/C1=C/CCCCCCCCCC1", "strain": "ATCC 14053", "value": "≥100 µg/mL"}
{"smiles": "Nn1c(SCC(O)(Cn2cncn2)c2ccc(Cl)cc2Cl)nnc1-c1cccc(Br)c1", "strain": "IRFC 36", "read by": "broth dilution", "value": ">64 µg/mL"}
{"smiles": "CC1=CCC2(C)CCC(O)(C(C)C)C2C(OC(=O)c2ccccc2)C1", "strain": "SC5314", "value": ">50 µg/mL"}
{"smiles": "Nn1c(SCC(O)(Cn2cncn2)c2ccc(F)cc2F)nnc1-c1ccc(O)cc1", "strain": "IRFC 192", "read by": "broth dilution", "value": ">64 µg/mL"}
{"smiles": "C[C@@H](c1nc(-c2ccc(C#N)cc2)cs1)[C@](O)(Cn1cnnc1)c1ccc(F)cc1F", "strain": "A28200", "value": "≤0.007 µg/mL"}
{"smiles": "O=[n+]1c(Sc2ccccc2)c(CBr)n([O-])c2ccccc21", "strain": "Clinical isolate 16", "value": "31.25 µg/mL"}
{"smiles": "O=C(N/N=C/c1ccc(F)cc1)c1ccc(CNc2nc3ccccc3[nH]2)cc1", "read by": "broth dilution", "value": "50 µg/mL"}
{"smiles": "COc1cc(C(=O)O[C@H]2C=C(C)C(=O)C[C@@]3(C)CC[C@@](O)(C(C)C)C23)ccc1O", "strain": "SC5314", "value": ">50 µg/mL"}
{"smiles": "Cc1c(S(=O)(=O)c2ccccc2)[n+](=O)c2ccccc2n1[O-]", "strain": "Clinical isolate 8", "value": "15.6 µg/mL"}
{"smiles": "Cc1ccc(/C=N/NC(=O)c2ccc(CNc3nc4ccccc4[nH]3)cc2)cc1", "read by": "broth dilution", "value": "100 µg/mL"}
{"smiles": "Cc1ccc(OC(C)c2nnc(SCC(=O)Nc3nccs3)n2-c2ccccc2)cc1", "strain": "Clinical isolates", "value": ">16 µg/mL"}
{"smiles": "CCC1C=C(c2ccc(Cl)cc2)C(=O)O1", "strain": "ATCC 44859", "value": ">125 µM"}
{"smiles": "O=C1CCC/C1=C1/Sc2ccccc2N1C1CCCCCC1", "strain": "ATCC 14053", "value": "50 µg/mL"}
{"smiles": "C[C@H]1[C@H](O)[C@@H](C)/C=C/C=C/C=C/C=C/C=C/C=C/C=C/[C@H](O[C@@H]2O[C@H](C)[C@@H](O)[C@H](N)[C@@H]2O)C[C@@H]2O[C@](O)(C[C@@H](O)C[C@@H](O)CC[C@H](O)[C@@H](O)C[C@@H](O)CC(=O)O[C@H]1C)C[C@H](O)[C@H]2C(=O)O", "strain": "n. 1s", "read by": "broth dilution", "value": "2 µM"}
{"smiles": "CCOC(=O)c1csc(NC(=O)CSc2nnc(C(C)Oc3ccccc3)n2C2CCCCC2)n1", "strain": "Clinical isolates", "value": "16 µg/mL"}

Repeating the final 7 entries:

smiles	strain	read by	value
Cc1c(S(=O)(=O)c2ccccc2)[n+](=O)c2ccccc2n1[O-]	Clinical isolate 8	-	15.6 µg/mL
Cc1ccc(/C=N/NC(=O)c2ccc(CNc3nc4ccccc4[nH]3)cc2)cc1	-	broth dilution	100 µg/mL
Cc1ccc(OC(C)c2nnc(SCC(=O)Nc3nccs3)n2-c2ccccc2)cc1	Clinical isolates	-	>16 µg/mL
CCC1C=C(c2ccc(Cl)cc2)C(=O)O1	ATCC 44859	-	>125 µM
O=C1CCC/C1=C1/Sc2ccccc2N1C1CCCCCC1	ATCC 14053	-	50 µg/mL
C[C@H]1[C@H](O)[C@@H](C)/C=C/C=C/C=C/C=C/C=C/C=C/C=C/[C@H](O[C@@H]2O[C@H](C)[C@@H](O)[C@H](N)[C@@H]2O)C[C@@H]2O[C@](O)(C[C@@H](O)C[C@@H](O)CC[C@H](O)[C@@H](O)C[C@@H](O)CC(=O)O[C@H]1C)C[C@H](O)[C@H]2C(=O)O	n. 1s	broth dilution	2 µM
CCOC(=O)c1csc(NC(=O)CSc2nnc(C(C)Oc3ccccc3)n2C2CCCCC2)n1	Clinical isolates	-	16 µg/mL